These results are taken from paper PMC9894610.

Series [1] deals with His-OpaR (Vibrio parahaemolyticus RIMD2210633) (UniProt Q79YV4). Nature of the series: EMSA. Particulars: 0.05 mg/ml salmon sperm DNA, dose-dependent, 10 mM Tris-HCl pH 7.5, 50 mM NaCl, 1 mM MgCl2, 0.5 mM EDTA, 0.5 mM DTT, footprinting in same buffer, 30 min at room temperature, recombinant protein, residues 1-204, protein details: 6xHis (pET28a), label: 5'-32P, probe letters rebuilt from the primers and the genome. On the technique in general: In EMSA bound probe runs differently from free probe, usually more slowly.

Series [2] has the same target. Nature of the series: DNase I footprinting. The conditions noted are these: protected -112 to -81 relative to translation start; 10 mM Tris-HCl pH 7.5, 50 mM NaCl, 1 mM MgCl2, 0.5 mM EDTA, 0.5 mM DTT, 0.05 mg/ml salmon sperm DNA; footprinting in same buffer, 30 min at room temperature; recombinant protein; residues 1-204; protein details: 6xHis (pET28a); label: 32P at a single end (coding or non-coding strand); probe letters rebuilt from the primers and the ….

With “TTGGATTTGCTGCTTAAGTTGGGCTAATAGCGGGTTATCTTGAAACATCTTTTCTTAACTTACCAATGGAGTTGGCCACACTATAATCATTGCGGGCTATTATTACTACCTAAAGCACACAAATTCGCTGTGAATTATTGATGAATTAAACAGCTCAACGGTGCTTTTCTCTTCGGAGAAACGGGCGGTAGGTGGATTTTTATGCGGATATTACCATTAGTGAGAATAAATTGTGATGTAATTCAATTTTTTCTAGCTTTTTTTATGCATTTAAGGAATAATCCGCCTCCCTTAGTCGTCCCTAATGGCTTATCGCGGTTGTGTACTGTGCTAACTCCTGTCTGAATGGATTTAGTAACTGGATGAATCAGTATCGAATTGGAAGAGCATATGGGACTGTTTTTTTGTTTAATTAAGTAGGATCCCAATGCAAGATTCTGTTATTCAATTCAGCGATTTATCTCTGAATGATTCTATCCTTTCTGCTCTAGACGGAATGGGTTTCGTGTCACCAACTCCAATTCAGGCTGCGGCAATCCCACACCTATTGGAAGGTGCTGACGCGCTGGGTAAAGCACAGACGGGT (double strand) [vpa0607 upstream fragment (EMSA)]”, in series [1], the binding result was “binds”.

Take “TTGGATTTGCTGCTTAAGTTGGGCTAATAGCGGGTTATCTTGAAACATCTTTTCTTAACTTACCAATGGAGTTGGCCACACTATAATCATTGCGGGCTATTATTACTACCTAAAGCACACAAATTCGCTGTGAATTATTGATGAATTAAACAGCTCAACGGTGCTTTTCTCTTCGGAGAAACGGGCGGTAGGTGGATTTTTATGCGGATATTACCATTAGTGAGAATAAATTGTGATGTAATTCAATTTTTTCTAGCTTTTTTTATGCATTTAAGGAATAATCCGCCTCCCTTAGTCGTCCC (double strand) [vpa0607 upstream fragment (DNase I footprinting)]”: the binding result in series [2] is recorded as “binds”.
